Patent publication EP4361172A2

Tests used:
[1] = target: human NaV1.4 sodium channel (human) (UniProt P35499); assay: cell-based or functional assay
[2] = target: human NaV1.4 sodium channel (human), P35499; assay: cell-based or functional assay

Molecule: CnIIIC standard (commercially available synthetic µ-conotoxin CnIIIC) (from UniProt I1SB07 1-22) (peptide)
- IC50, inhibition of sodium ion current (patch-clamp, Xenopus oocytes) [1]: 0.0336 µM
- IC99, inhibition of sodium ion current (patch-clamp, Xenopus oocytes) [1]: 3.3 µM

B1: recombinant µ-conotoxin TIIIA (peptide)
peptide: RHGCCKGPKGCSSRECRPQHCC
modifications: not checked
- IC50, inhibition of sodium ion current (patch-clamp, Xenopus oocytes) [2]: 9.7 µM
- IC99, inhibition of sodium ion current (patch-clamp, Xenopus oocytes) [2]: 0.97 mM
